Compound potency records, mixed from different reports. Data source: NIAID ChemDB in PubChem.

Shared fields: whole-cell or culture tests

Lines come from different laboratories, so protocols vary.

smiles | strain | tested at | species | measure | cell line | read by | conditions | result
N#CCn1ccc(=O)n(Cc2cc(Cl)cc(Cl)c2)c1=O | AD169 |  | Human cytomegalovirus | EC50 |  |  |  | 64 µM
Nc1nc(N)c2ncn(C[C@@H](CO)OCP(=O)(O)O)c2n1 | GS |  | Human herpesvirus 6 | EC50 | HSB-2 | antigen / flow cytometry |  | 27 µM
Nc1ccn(C[C@@H](CO)OCP(=O)(O)O)c(=O)n1 | GS |  | Human herpesvirus 6 | EC50 | HSB-2 | antigen |  | 3.8 µg/mL
Nc1nc2c(ncn2CCC(CO)CO)c(=O)[nH]1 |  |  | Human herpesvirus 7 | EC50 | CD4+ T lymphocytes | syncytia |  | >250 µg/mL
Nc1nc(=O)n([C@@H]2O[C@H](CO)[C@@H](O)[C@@H]2F)cc1I | GS |  | Human herpesvirus 6 | EC50 | HSB-2 | cytopathic effect |  | >1 µM
Nc1nc2c(ncn2[C@@H]2C[C@H](CO)[C@H]2CO)c(=O)[nH]1 |  |  | Human herpesvirus 7 | EC50 | CD4+ T lymphocytes | syncytia |  | 4.5 µg/mL
O=C(O)P(=O)(O)O | AD169 |  | Human cytomegalovirus | EC90 | MRC-5 | plaque count |  | 150 µM
NC(=S)c1cn([C@@H]2O[C@H](CO)C[C@H]2O)c2ncnc(N)c12 |  |  | Human cytomegalovirus | EC90 | HFF | virus yield |  | 3 µM
Nc1nc2c(ncn2COC(CO)CO)c(=O)[nH]1 | AD169 |  | Human cytomegalovirus | EC50 | HEL |  |  | 7.5 µM
Nc1nc(N)c2ncn(CCOCP(=O)(O)O)c2n1 | GS |  | Human herpesvirus 6 | EC50 | HSB-2 | cytopathic effect |  | 3.3 µg/mL
O=c1[nH]c(=O)n([C@@H]2O[C@H](CO)[C@@H](O)[C@@H]2O)cc1/C=C/Br |  |  | Human herpesvirus 7 | EC50 | SupT1 | syncytia |  | >250 µg/mL
Nc1ncnc2c1ncn2C[C@@H](CO)OCP(=O)(O)O | GS |  | Human herpesvirus 6 | EC50 | HSB-2 | antigen |  | 2.7 µg/mL
Nc1nc(N)c2ncn(CCOCP(=O)(O)O)c2n1 | U1102 (TYPE 6A) |  | Human herpesvirus 6 | EC50 | HSB-2 | cytopathic effect |  | >153 µM
Nc1ccn([C@@H]2C[C@H](CO)[C@@H](O)[C@H]2O)c(=O)n1 | 229E 229E |  | Human coronavirus | EC50 | WI-38 | cytopathic effect |  | 7 µg/mL
Nc1nc2c(ncn2CCC(CO)CO)c(=O)[nH]1 | 729 | 50 µM | Human herpesvirus 6 | inhibition | HUMAN CORD BLOOD CELL | antigen | 6 d | 12%
CC(C)Nc1nc2cc(Cl)c(Cl)cc2n1[C@H]1O[C@@H](CO)[C@H](O)[C@@H]1O | P | 1.03 µM | Human cytomegalovirus | inhibition | MRC-5 | plaque count |  | 90%
C[C@H](N)C(=O)OCP(=O)(OC[C@H]1O[C@@H](n2cnc3c(N)ccnc32)C[C@@H]1O)Oc1ccccc1 | AD169 |  | Human cytomegalovirus | EC50 | HEL |  |  | >100 µM
CCC#Cc1ccc2c(c1)c(=O)c(C(=O)NCc1ccc(Cl)cc1)nn2C |  | 20 µM | Human cytomegalovirus | inhibition |  |  |  | 90%
Cc1cc(Cn2c(=O)ccn(Cc3c(F)cccc3F)c2=O)cc(C)n1 | AD169 |  | Human cytomegalovirus | EC50 |  |  |  | 5.9 µM
C=C1CCC2CC(C(=C)C)C2(C)CCC(C(=C)C(=O)O)CC1CC=C(C)C | HRV2 |  | Human rhinovirus | EC50 | HeLa |  |  | <0.1 µg/mL
C[C@H](N)C(=O)OCP(=O)(OC[C@H]1O[C@@H](n2cc(/C=C/Br)c(=O)[nH]c2=O)C[C@@H]1O)Oc1ccccc1 | AD169 |  | Human cytomegalovirus | EC50 | HEL |  |  | >20 µM
Nc1ccn(C[C@H]2COP(=O)(O)CO2)c(=O)n1 | U1102 (TYPE 6A) |  | Human herpesvirus 6 | EC50 | HSB-2 | cytopathic effect |  | 38 µM
Nc1ccn(C[C@H]2COP(=O)(O)CO2)c(=O)n1 |  |  | Human herpesvirus 7 | EC50 | SupT1 | syncytia |  | 17.5 µg/mL
Nc1nc2c(ncn2CCC(CO)CO)c(=O)[nH]1 |  |  | Human herpesvirus 6 | EC50 | Human T-lymphoblasts | cytopathic effect |  | 71 µM
O=c1[nH]c(=O)n([C@H]2C[C@H](O)[C@@H](CO)O2)cc1I | GS |  | Human herpesvirus 6 | EC50 | HSB-2 | cytopathic effect |  | >1500 µM
N#CCn1ccc(=O)n(Cc2cccc3ccccc23)c1=O | AD169 |  | Human cytomegalovirus | EC50 |  |  |  | 48 µM
Nc1nc2c(ncn2CCOCP(=O)(O)O)c(=O)[nH]1 | GS |  | Human herpesvirus 6 | EC50 | HSB-2 | antigen / flow cytometry |  | 1.5 µM
N#CCn1ccc(=O)n(Cc2cccc(C#N)c2)c1=O | AD169 |  | Human cytomegalovirus | EC50 |  |  |  | >188 µM
Nc1nc2c(ncn2COCCO)c(=O)[nH]1 |  |  | Human herpesvirus 7 | EC50 | CD4+ T lymphocytes | syncytia |  | >250 µg/mL
C[C@H](N)C(=O)OCP(=O)(OC[C@H]1O[C@@H](n2cnc3c(Cl)nccc32)C[C@@H]1O)Oc1ccccc1 | AD169 |  | Human cytomegalovirus | EC50 | HEL |  |  | >100 µM
Cc1cc(C)nc(Cn2c(=O)ccn(Cc3ccccc3)c2=O)c1 | AD169 |  | Human cytomegalovirus | EC50 |  |  |  | 20 µM

For reference, 3 entries again:

C[C@H](N)C(=O)OCP(=O)(OC[C@H]1O[C@@H](n2cnc3c(N)ccnc32)C[C@@H]1O)Oc1ccccc1 ; strain: AD169 ; species: Human cytomegalovirus ; measure: EC50 ; cell line: HEL ; result: >100 µM
Nc1nc2c(ncn2CCC(CO)CO)c(=O)[nH]1 ; strain: 729 ; tested at: 50 µM ; species: Human herpesvirus 6 ; measure: inhibition ; cell line: HUMAN CORD BLOOD CELL ; read by: antigen ; conditions: 6 d ; result: 12%
O=C(O)P(=O)(O)O ; strain: AD169 ; species: Human cytomegalovirus ; measure: EC90 ; cell line: MRC-5 ; read by: plaque count ; result: 150 µM

Inhibition is in % at the dose shown (toxicity tests: loss of growth or viability). ECn is the concentration giving n% inhibition of infection, replication or growth. An empty or dashed field is not shown.